Source: patent US20250144125A1 (priority 2021, published 2025)
Values joined by “and” are separate entries in the source; they are usually repeats but may differ in a detail not shown here. Equal values may be shown once. Read-outs that look alike come from different tables or passages of the source.

Experiments:
Format in all cases: cell-based
[1] = system: measles virus (CC strain)
[2] = system: human norovirus genogroup I NoV (Norwalk virus replicon) in HG23 cells; assay: Human norovirus antiviral assay, qRT PCR in HG23 NoV replicon cells
[3] = system: tacaribe virus (TRVL11573 strain)
[4] = system: yellow fever virus (YFV 17D strain)
[5] = system: MERS-CoV (EMC strain)
[6] = system: dengue virus 2 (New Guinea C strain); conditions: ratio CC50 / EC50
[7] = system: enterovirus-71 (Tainan/4643/98 strain); design: unit not given beside the values
[8] = system: influenza A (H1N1) virus (California/07/2009 strain); design: SI50 Influenza A (H1N1): unit not given beside the values
[9] = system: tacaribe virus (TRVL11573 strain); design: unit not given beside the values
[10] = system: enterovirus-71 (Tainan/4643/98 strain); assay: Secondary assay (virus yield reduction / neutral red CPE) against enterovirus-71 in Vero 76 cells

Row | SMILES | Measles SI50 (CC50/EC50) [1] | SI50 (CC50/EC50) human norovirus [2] | Tacaribe virus SI50 (CC50/EC50) [3] | Yellow fever virus SI50 (CC50/EC50) [4] | MERS-CoV SI50 (CC50/EC50) [5] | SI50 dengue virus 2 [6] | SI50 enterovirus-71 [7] | SI50 (CC50/EC50) influenza A (H1N1) [8] | SI50 tacaribe virus [9] | SI50 enterovirus-71 [10] | SI50 Influenza A (H1N1) [8]
1 | Nc1ccn([C@@H]2O[C@H](CO)[C@@H](O)[C@H]2F)c(=O)n1 [2′-Fluoro-2′-deoxycytidine, 2′-fluoro-2′-deoxycytidine, reference compound] | >100 and >110 |  |  |  |  |  |  |  |  |  | 
2 | C[C@@]1(O)[C@H](O)[C@@H](CO)O[C@H]1n1ccc(N)nc1=O [2′C Methyl Cytidine, 2′-C-Methylcytidine, reference compound] |  | >16 |  |  |  |  |  |  |  |  | 
3 | OC[C@H]1O[C@@H](n2ccc3c(C4CC4)ncnc32)[C@H](O)[C@@H]1O [3.1a, 6-Cyclopropyl-9-β-D-ribofuranosyl-7-deazapurine, reference compound] | >1.6 and >1.8 | > 40 | 0 | 0 | 0 | >3 and >2 | 0 | 0 |  |  | 
4 | C=C(OCC)c1ncnc2c1ccn2[C@@H]1O[C@H](CO)[C@@H](O)[C@H]1O [3.1b, 6-(1-Ethoxyvinyl)-9-β-D-ribofuranosyl-7-deazapurine] |  |  | 2.3 and 2.5 | 0 |  | 6 and 3 |  | 0 |  |  | 
5 | OC[C@H]1O[C@@H](n2ccc3c(C#CC4CC4)ncnc32)[C@H](O)[C@@H]1O [3.1c, 6-Cydopropylethynyl-9-β-D-ribofuranosyl-7-deazapurine] | > 100 | 139 | > 230 and 150 | 33 and 37 | >10 and >15 |  | 0 | >9.1 and >12 | 86 |  | 
6 | CC#Cc1ncnc2c1ccn2[C@@H]1O[C@H](CO)[C@@H](O)[C@H]1O [3.1d, 6-(Prop-1-yn-1-yl)-9-β-D-ribofuranosyl-7-deazapurine] | 0 | 3,145 | 1.6 and 1.9 |  |  | 11 and 10 | 0 | 1.9 and 1.7 |  |  | 
7 | CC(C)C#Cc1ncnc2c1ccn2[C@@H]1O[C@H](CO)[C@@H](O)[C@H]1O [3.1e, 6-(3-Methylbut-1-yn-1-yl)-9-β-D-ribofuranosyl-7-deazapurine] | 11 and 22 | 100 | 7.7 and 7.3 | 3 | >9.1 and >7.1 | 7 and 12 | >24 and >23 |  |  | 24 | 
8 | CCCC#Cc1ncnc2c1ccn2[C@@H]1O[C@H](CO)[C@@H](O)[C@H]1O [3.1f, 6-(Pent-1-yn-1-yl)-9-β-D-ribofuranosyl-7-deazapurine] | 20 and 16 |  | 6.3 and 5.5 |  |  | 16 and 11 | > 45 and >63 | 4.1 and 2.2 |  | 3 | 
9 | OC[C@H]1O[C@@H](n2ccc3c(C#CC4CCCC4)ncnc32)[C@H](O)[C@@H]1O [3.1g, 6-(Cydopentylethynyl)-9-β-D-ribofuranosyl-7-deazapurine] | 9.7 and 11 | 59 | 65 and 110 |  | 13 and 17 |  | 36 and >63 | 0 |  | 10 | 
10 | OC[C@H]1O[C@@H](n2ccc3c(C#Cc4ccc(F)cc4)ncnc32)[C@H](O)[C@@H]1O [3.1h, 6-((4-Fluorophenyl)ethynyl)-9-β-D-ribofuranosyl-7-deazapurine] | 4.5 and 4.4 | > 38,470 | 0 | 15 and 13 | 0 | 0 | 0 | 0 |  |  | 
11 | OC[C@H]1O[C@@H](n2ccc3c(C#Cc4cccc(F)c4)ncnc32)[C@H](O)[C@@H]1O [3.1i, 6-((3-Fluorophenyl)ethynyl)-9-β-D-ribofuranosyl-7-deazapurine] | 7.5 and 6.1 |  | 0 | 27 and 35 | 0 | 9 and 8 | 0 | 0 |  |  | 
12 | OC[C@H]1O[C@@H](n2ccc3c(C#Cc4ccc(Cl)cc4)ncnc32)[C@H](O)[C@@H]1O [3.1j, 6-((4-Chlorophenyl)ethynyl)-9-β-D-ribofuranosyl-7-deazapurine] | 3.8 and 3.3 | 1,748 | 0 |  | 0 | 11 and 13 | 0 | 0 |  |  | 
13 | C#Cc1cn([C@@H]2O[C@H](CO)[C@@H](O)[C@H]2O)c2ncnc(CC)c12 [3.1l, 6-Ethyl-7-ethynyl-9-β-D-ribofuranosyl-7-deazapurine] |  | 1 | 0 | 0 |  | 0 | 0 | > 290 and >190 |  |  | 
14 | C=Cc1cn([C@@H]2O[C@H](CO)[C@@H](O)[C@H]2O)c2ncnc(CC)c12 [3.1m, 6-Ethyl-7-vinyl-9-β-D-ribofuranosyl-7-deazapurine] | >4 and >2.3 | 4 | 0 |  | >4.5 and >7.1 |  | 0 | 0 |  |  | 
15 | CCc1ncnc2c1c(C#CC1CC1)cn2[C@@H]1O[C@H](CO)[C@@H](O)[C@H]1O [3.1n, 6-Ethyl-7-cyclopropylethynyl-9-β-D-ribofuranosyl-7-deazapurine] | >1.6 and >3 | 6 | 0 | 0 | >10 and >18 |  | 0 | 0 |  |  | 
16 | CCc1ncnc2c1c(I)cn2[C@@H]1O[C@H](CO)[C@@H](O)[C@H]1O [3.1o, 6-Ethyl-7-iodo-9-β-D-ribofuranosyl-7-deazapurine] | 0 |  | 0 | 0 |  | 0 | 0 | 0 |  |  | 
17 | CCc1ncnc2c1c(Cl)cn2[C@@H]1O[C@H](CO)[C@@H](O)[C@H]1O [3.1p, 6-Ethyl-7-chloro-9-β-D-ribofuranosyl-7-deazapurine] | 0 |  | 0 | 0 | 0 |  | 0 | 0 |  |  | 
18 | CCc1ncnc2c1c(Br)cn2[C@@H]1O[C@H](CO)[C@@H](O)[C@H]1O [3.1q, 6-Ethyl-7-bromo-9-β-D-ribofuranosyl-7-deazapurine] | 0 |  | 0 | 0 | 0 | 0 | 0 | 0 |  |  | 
19 | CCc1ncnc2c1c(F)cn2[C@@H]1O[C@H](CO)[C@@H](O)[C@H]1O [3.1r, 6-Ethyl-7-Fluoro-9-β-D-ribofuranosyl-7-deazapurine] | 4.2 and 4.4 |  |  | 0 | 33 and 18 |  | 0 | 100 and 130 |  |  | >130
20 | CCOC(=O)c1ccc(OCCC2CCN(c3ccc(C)nn3)CC2)cc1 [Pirodavir, pirodavir, reference compound] |  |  |  |  |  |  | >67 and >100 |  |  | >77 | 
21 | NC(=O)c1ncn([C@@H]2O[C@H](CO)[C@@H](O)[C@H]2O)n1 [Ribavirin, ribavirin, reference compound] |  |  | >110 and 120 |  |  |  |  | >450 and >420 | >130 |  | >400
